Literature values, collected in US7750031B2, “Caffeic acid derivative and composition containing the same” (Thefaceshop Korea Co., Ltd., priority 2007, dated 2010).

Tested on: aflatoxin
Settings: cited from earlier work

## O=C(O)/C=C/c1ccc(O)c(O)c1 [caffeic acid]
  decrease of the production of aflatoxin: more than 95%
